PubChem BioAssay AID624099 – ICCB-Longwood – 2012
Purpose: 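Host factors E2 relies on to silence an HPV18 LCR reporter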 (primary screen). Cell system: human C33A cervical carcinoma cells (HPV-negative) stably expressing BPV1 E2 and an HPV18 LCR luciferase reporter. Reagent: siRNA pool against human genes, 40 nM. Time to read-out: 72 h. Measured: 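Per-well luciferase luminescence, z-scored on each plate against the plate mean and SD with control wells left out, then averaged across three replicate plates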. Reading the numbers: mean z-score and z-score: higher = stronger reporter signal, weaker E2 silencing. Active means: 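Mean z ≥ 2 together with z ≥ 2 in two or more of the three replicates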.
This is one part, drawn at random, of about 21,000 reagents tested. Of all reagents, 497 (2.4%) got an active call. 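Higher z means weaker E2 silencing; only reporter increases were scored, and knock-downs that hurt cell survival may mask genuine repressor factors.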 Reagents against one gene are numbered here.

| target gene | reagent no. | mean z-score | z-score, replicate A | z-score, replicate B | z-score, replicate C | Outcome |
| --- | --- | --- | --- | --- | --- | --- |
| CRB1 | 1 | 0.28 | 0.41 | 0.21 | 0.22 | inactive |
| AAK1 | 1 | -0.17 | -0.6 | 0.1 | -0.02 | inactive |
| AAK1 | 2 | -0.26 | -0.03 | -0.23 | -0.52 | inactive |
| HES7 | 1 | 1.42 | 2.07 | 0.96 | 1.24 | inactive |
| GRXCR1 | 1 | 0.7 | 0.98 | 0.31 | 0.81 | inactive |
| SLAIN2 | 1 | 0.23 | -0.29 | 0.07 | 0.89 | inactive |
| MRPL1 | 1 | 0.63 | 0.65 | 0.53 | 0.72 | inactive |
| EDEM2 | 1 | -1.12 | -0.72 | -1.03 | -1.63 | inactive |
| TPRA1 | 1 | -0.09 | -0.14 | 0.28 | -0.41 | inactive |
| HNRNPR | 1 | 0.35 | 0.52 | 0.23 | 0.29 | inactive |
| MYCL | 1 | -0.44 | -0.44 | -0.58 | -0.31 | inactive |
| LRRC74B | 1 | 0 | -0.19 | -0.12 | 0.31 | inactive |
| ERP44 | 1 | -0.52 | -0.43 | -0.67 | -0.46 | inactive |
| TFDP3 | 1 | -0.67 | -0.28 | -1.08 | -0.65 | inactive |
| BTN3A1 | 1 | 1.52 | 1.76 | 1.46 | 1.35 | inactive |
| TLCD3B | 1 | 0.74 | 0.58 | 0.74 | 0.91 | inactive |
| LOC440305 (retired record) | 1 | 0.31 | 0.15 | 0.29 | 0.51 | inactive |
| LINC02843 | 1 | -0.2 | -0.38 | -0.38 | 0.16 | inactive |
| AHRR | 1 | -0.29 | -0.25 | -0.36 | -0.27 | inactive |
| B3GAT2 | 1 | 0.17 | 0.15 | 0.16 | 0.18 | inactive |
| ZNF475 | 1 | -0.95 | -0.91 | -0.75 | -1.18 | inactive |
| THAP8 | 1 | -2.11 | -2.06 | -2.34 | -1.93 | inactive |
| OR2K2 | 1 | -1.17 | -1.16 | -1.27 | -1.08 | inactive |
| VPS72 | 1 | -0.03 | 0.07 | -0.2 | 0.03 | inactive |
| JARID2 | 1 | -0.55 | -0.49 | -0.34 | -0.81 | inactive |
| CSNK2A2 | 1 | -1.72 | -1.54 | -1.76 | -1.84 | inactive |
| RHOJ | 1 | 1.36 | 1.21 | 1.4 | 1.49 | inactive |
| SLX4 | 1 | 0.68 | 0.74 | 0.42 | 0.9 | inactive |
| SLX4 | 2 | 1.35 | 1.19 | 1.23 | 1.64 | inactive |

Next part (7 carried over from the part before).
| target gene | reagent no. | mean z-score | z-score, replicate A | z-score, replicate B | z-score, replicate C | Outcome |
| --- | --- | --- | --- | --- | --- | --- |
| OR2K2 | 1 | -1.17 | -1.16 | -1.27 | -1.08 | inactive |
| VPS72 | 1 | -0.03 | 0.07 | -0.2 | 0.03 | inactive |
| JARID2 | 1 | -0.55 | -0.49 | -0.34 | -0.81 | inactive |
| CSNK2A2 | 1 | -1.72 | -1.54 | -1.76 | -1.84 | inactive |
| RHOJ | 1 | 1.36 | 1.21 | 1.4 | 1.49 | inactive |
| SLX4 | 1 | 0.68 | 0.74 | 0.42 | 0.9 | inactive |
| SLX4 | 2 | 1.35 | 1.19 | 1.23 | 1.64 | inactive |
| LOC389184 (retired record) | 1 | 1.11 | 0.83 | 1.01 | 1.49 | inactive |
| PDLIM5 | 1 | 0.21 | 0.37 | 0.16 | 0.11 | inactive |
| SGSM3 | 1 | 0.14 | 0.18 | 0.13 | 0.1 | inactive |
| SLC15A4 | 1 | 0.03 | -0.16 | 0.41 | -0.15 | inactive |
| DUT | 1 | 0.13 | 0.55 | 0.21 | -0.36 | inactive |
| RAD17 | 1 | -0.97 | -1.17 | -1.1 | -0.64 | inactive |
| EZR | 1 | 0.28 | 0.07 | 0.37 | 0.38 | inactive |
| ALDOB | 1 | 1.25 | 1.2 | 1.1 | 1.45 | inactive |
| ZNF654 | 1 | -0.32 | -0.61 | -0.75 | 0.41 | inactive |
| SLC7A2 | 1 | -0.08 | -0.05 | 0.09 | -0.26 | inactive |
| GPRASP2 | 1 | -0.73 | -1.12 | -0.58 | -0.47 | inactive |
| CST8 | 1 | 0.05 | -0.06 | -0.11 | 0.32 | inactive |
| SMAD2 | 1 | 0.44 | 0.63 | 0.76 | -0.06 | inactive |
| TXNDC11 | 1 | 1 | 1.2 | 1.15 | 0.65 | inactive |
| OTOL1 | 1 | 0.39 | 0.11 | 0.44 | 0.61 | inactive |
| ZBTB41 | 1 | -0.69 | -0.82 | -0.86 | -0.39 | inactive |
| RSL1D1 | 1 | -0.56 | -0.83 | -0.57 | -0.29 | inactive |
| AURKAIP1 | 1 | 0.15 | 0.28 | 0.08 | 0.1 | inactive |
| NIPA1 | 1 | 1.96 | 1.79 | 2.31 | 1.78 | inactive |
| SLC75A1 | 1 | -0.47 | -0.39 | -0.37 | -0.66 | inactive |
| CCDC186 | 1 | 0.73 | 0.81 | 1.21 | 0.16 | inactive |
| B3GNT4 | 1 | 0.86 | 0.97 | 0.85 | 0.76 | inactive |
| HDAC4 | 1 | 1.61 | 1.77 | 1.6 | 1.47 | inactive |
| HBA1 | 1 | -1 | -0.87 | -0.98 | -1.14 | inactive |
| CD1A | 1 | 0.27 | 0.28 | 0.39 | 0.13 | inactive |
| SLF1 | 1 | 0.97 | 0.52 | 1.51 | 0.87 | inactive |
| SLF1 | 2 | 0.24 | 0.17 | 0.61 | -0.05 | inactive |
| LINC01181 | 1 | 0.12 | -0.12 | 0.34 | 0.14 | inactive |
